B1: open-gate 20S proteasome core particle (Δ7PrcA, Δ57PrcB), Mycobacterium tuberculosis (complex)
chain 1: not shown
chain 2: not shown
notes: copies: 14 + 14
B2: proteasome α-subunit Δ7PrcA, Mycobacterium tuberculosis (natural protein)
chain: not shown
B3: proteasome β-subunit Δ57PrcB, Mycobacterium tuberculosis (natural protein)
chain: not shown

Columns and labels:
Assay in all cases: cryo-EM structure
[1] = molecular target: mycobacterial proteasome ATPase (Mpa), Mycobacterium tuberculosis, wild type (Mycobacterium tuberculosis); settings: both partners purified
[2] = molecular target: the molecule itself
[3] = molecular target: B2; settings: both partners purified

B1: binds [1].

For B2, the binding result [1] was “binds” and the “stoichiometry N” value [2] was 7.

B3: binds [3].
